Values from PubChem BioAssay AID504761 (Drosophila RNAi Screening Center, 2011)

Aim: 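Genome-wide fly cell screen for genes dengue virus requires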 (primary screen)
System: D.Mel-2 cells from Drosophila
Reagents: long dsRNA against Drosophila genes
Conditions: infection with dengue virus type 2; dose and infection time not stated
Measured: 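Per well on two replicate plates, imaging gave the percent of cells positive for viral envelope protein, ranked by infection, and a nuclear count of cells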
Direction: infection score: higher = more virus-infected cells; cell count: higher = more cells in the well
Rule for the call: 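Very low infection ranking in both replicate wells (chance probability at most 0.065), then a retest showing infection dropped 1.5-fold or more at p below 0.05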
Calls: active = confirmed: knock-down lowers infection; inactive = not picked or not confirmed
The deposit covers about 22,000 reagents; below is a random part of those with a known target gene and a result. Of all reagents, 116 (0.52%) are marked active. 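Calls depend on retest data that are not deposited; infection was ranked per plate without normalising between plates; the unit of the infection score is not given.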 Raw values are not corrected between plates. The numbers tell different reagents against one gene apart. Not all columns of the deposit are shown. Not given: the amount of reagent, the time to read-out.

What did the screen give for CG16922 (retired record) #1?
infection score, replicate 1: 0.67; cell count, replicate 1: 6249; Call: inactive

For CG16922 (retired record) #2, what was measured?
infection score, replicate 1: 26.5; cell count, replicate 1: 5518; Call: inactive

With CG4282, what does the deposit list?
infection score, replicate 1: 7.04; cell count, replicate 1: 6446; Call: inactive

With CG15207 (retired record) #1, what was measured?
infection score, replicate 1: 1.62; cell count, replicate 1: 5506; Call: inactive

What is on record for CG15207 (retired record) #2?
infection score, replicate 1: 15.6; cell count, replicate 1: 4444; Call: inactive

What did the screen give for CG6738 #1?
infection score, replicate 1: 4.47; cell count, replicate 1: 1991; Call: inactive

Which result is listed for CG6738 #2?
infection score, replicate 1: 6.01; cell count, replicate 1: 5603; Call: inactive

For CG9945 #1, what was measured?
infection score, replicate 1: 1.84; cell count, replicate 1: 5771; Call: inactive

For CG9945 #2, what was measured?
infection score, replicate 1: 7.28; cell count, replicate 1: 5718; Call: inactive

What is on record for CG13511 #1?
infection score, replicate 1: 15.8; cell count, replicate 1: 6051; Call: inactive

With CG13511 #2, what does the deposit list?
infection score, replicate 1: 14.3; cell count, replicate 1: 3403; Call: inactive

What did the screen give for beat-Vc #1?
infection score, replicate 1: 4.55; cell count, replicate 1: 5974; Call: inactive

What did the screen give for beat-Vc #2?
infection score, replicate 1: 1.39; cell count, replicate 1: 6278; Call: inactive

For CG4408, how do the results read?
infection score, replicate 1: 12.9; cell count, replicate 1: 6751; Call: inactive

Reformatted: results already given.
{"gene": "CG6738", "dsRNA no.": 1, "infection score, replicate 1": 4.47, "cell count, replicate 1": 1991, "Call": "inactive"}
{"gene": "CG6738", "dsRNA no.": 2, "infection score, replicate 1": 6.01, "cell count, replicate 1": 5603, "Call": "inactive"}
